Measured values published in ChEMBL document CHEMBL5620356, “Sulfur-fluoride exchange (SuFEx)-enabled lead discovery of AChE inhibitors by fragment linking strategies” (Eur J Med Chem, 2023).

Amino acid sequences for entries named in this document (tags omitted). A change or cut given only in a name is not applied to a line headed by its entry.
UniProt O42275: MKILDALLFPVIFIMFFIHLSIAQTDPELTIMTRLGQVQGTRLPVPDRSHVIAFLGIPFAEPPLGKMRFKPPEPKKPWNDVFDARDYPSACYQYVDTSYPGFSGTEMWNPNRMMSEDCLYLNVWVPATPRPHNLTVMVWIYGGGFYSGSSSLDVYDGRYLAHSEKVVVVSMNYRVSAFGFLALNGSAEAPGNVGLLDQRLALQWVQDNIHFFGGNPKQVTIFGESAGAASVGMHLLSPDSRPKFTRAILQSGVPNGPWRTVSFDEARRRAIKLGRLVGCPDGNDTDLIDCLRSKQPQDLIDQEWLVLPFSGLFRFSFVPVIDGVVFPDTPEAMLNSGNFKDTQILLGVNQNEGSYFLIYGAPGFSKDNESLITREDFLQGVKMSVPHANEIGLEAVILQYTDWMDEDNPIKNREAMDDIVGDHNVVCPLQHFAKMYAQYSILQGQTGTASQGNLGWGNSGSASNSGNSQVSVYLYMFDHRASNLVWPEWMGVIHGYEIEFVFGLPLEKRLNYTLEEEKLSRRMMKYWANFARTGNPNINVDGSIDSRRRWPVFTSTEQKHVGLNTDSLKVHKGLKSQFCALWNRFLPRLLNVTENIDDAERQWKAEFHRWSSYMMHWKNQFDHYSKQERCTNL

Target: Acetylcholinesterase (Electrophorus electricus) (UniProt O42275)
Assay: Inhibition of electric eel AChE using acetylthiocholine iodide as substrate at 20 uM preincubated for 20 mins followed by substrate addition and measured after 20 mins by DTNB reagent based Ellman's method relative to control
Conditions: time 40.0 min

O=C1N[C@@H]2C[C@@H](S(=O)(=O)F)[C@@H]2c2ccccc21
inhibition: < 50%
